Test results published in ChEMBL document CHEMBL3612042 (J Med Chem, 2015).

Target: T1, Biotin--[acetyl-CoA-carboxylase] ligase (Mycobacterium tuberculosis (strain ATCC 25618 / H37Rv)) (UniProt I6YFP0)
T1 sequence (whole entry): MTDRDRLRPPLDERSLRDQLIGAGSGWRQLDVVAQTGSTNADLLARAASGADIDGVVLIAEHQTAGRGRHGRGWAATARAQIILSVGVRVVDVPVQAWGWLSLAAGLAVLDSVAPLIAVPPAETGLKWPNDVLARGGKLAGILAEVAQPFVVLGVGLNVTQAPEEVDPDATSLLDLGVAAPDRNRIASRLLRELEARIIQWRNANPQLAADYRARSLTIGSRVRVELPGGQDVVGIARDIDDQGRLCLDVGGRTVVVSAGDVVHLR

With `Nc1ncnc2c1ncn2[C@@H]1C[C@H](CNS(=O)(=O)NC(=O)CCCC[C@@H]2SC[C@@H]3NC(=O)N[C@@H]32)[C@@H](O)[C@H]1O` as the compound, how does the ΔTm read?
Its ΔTm is 12.2 °C.

With `C[C@@]1(O)[C@H](O)[C@@H](COS(=O)(=O)NC(=O)CCCC[C@@H]2SC[C@@H]3NC(=O)N[C@@H]32)O[C@H]1n1cnc2c(N)ncnc21` as the compound, how does the ΔTm read?
The ΔTm was 14.2 °C.

With `Nc1ncnc2c1ncn2[C@@H]1O[C@H](CNS(=O)(=O)NC(=O)CCCC[C@@H]2SC[C@@H]3NC(=O)N[C@@H]32)[C@@H](O)[C@H]1N` as the compound, how does the ΔTm read?
Its ΔTm is 19.2 °C.

`Nc1ncnc2c1ncn2[C@@H]1O[C@H](CNS(=O)(=O)NC(=O)CCCC[C@@H]2SC[C@@H]3NC(=O)N[C@@H]32)C[C@H]1O` was tested. Which ΔTm did it give?
Its ΔTm is 15 °C.

`CCN(CC)CC.Nc1ncnc2c1ncn2[C@@H]1O[C@H](COS(=O)(=O)NC(=O)CCCC[C@@H]2SC[C@@H]3NC(=O)N[C@@H]32)[C@@H](O)[C@@H]1F` was tested. Which ΔTm did it give?
Its ΔTm is 17.7 °C.

With `[N-]=[N+]=N[C@@H]1[C@H](O)[C@@H](CNS(=O)(=O)NC(=O)CCCC[C@@H]2SC[C@@H]3NC(=O)N[C@@H]32)O[C@H]1n1cnc2c(N)ncnc21` as the compound, how does the ΔTm read?
The ΔTm was 13 °C.

`Nc1ncnc2c1ncn2[C@H]1C=C[C@@H](CNS(=O)(=O)NC(=O)CCCC[C@@H]2SC[C@@H]3NC(=O)N[C@@H]32)C1` was tested. Which ΔTm did it give?
Its ΔTm is 12.5 °C.

For `[N-]=[N+]=N[C@H]1[C@H](O)[C@@H](CNS(=O)(=O)NC(=O)CCCC[C@@H]2SC[C@@H]3NC(=O)N[C@@H]32)O[C@H]1n1cnc2c(N)ncnc21`, which ΔTm is on record?
The ΔTm was 17 °C.
